Anti-infective test results gathered from many reports (values: NIAID ChemDB through PubChem).

Common to all: whole-cell or culture tests; species: Herpes simplex virus 1; cells: PRK; read by: cytopathic effect; endpoint: EC50

ECn is the concentration giving n% inhibition of infection, replication or growth. Rows are shuffled and stem from different studies.

compound,strain or isolate,value
O=c1[nH]c(=O)n([C@H]2C[C@H](O)[C@@H](CO)O2)cc1I,KOS,0.15 µg/mL
O=c1[nH]c(=O)n([C@H]2CC[C@@H](CO)O2)cc1/C=C/Br,B2006 (TK-),100 µg/mL
CCc1cn([C@H]2C[C@H](O)[C@@H](CO)O2)c(N)nc1=O,B2006 (TK-),>400 µg/mL
O=Cc1cn([C@H]2C[C@H](O)[C@@H](CO)O2)c(=O)[nH]c1=O,VEX538,2 µg/mL
O=c1[nH]c(=O)n([C@H]2C[C@H](O)[C@@H](CO)O2)cc1/C=C/Br,1 (PAA-resistant),0.02 µg/mL
Nc1nc2c(ncn2COCCOP(=O)(O)O[C@@H]2[C@H](O)[C@@H](COP(=O)(O)O[C@@H]3[C@H](O)[C@@H](CO)O[C@H]3n3cnc4c(N)ncnc43)O[C@H]2n2cnc3c(N)ncnc32)c(=O)[nH]1,VMW1837 (TK-),>100 µg/mL
Nc1ncnc2c1ncn2C[C@H](O)CO,5 (PAA-resistant),>400 µg/mL
[N-]=[N+]=Nc1cccc(/C=C/c2cn([C@H]3C[C@H](O)[C@@H](COP(=O)(O)O)O3)c(=O)[nH]c2=O)c1,McIntyre,>200 µg/mL
CCCc1cn([C@H]2C[C@H](O)[C@@H](COP(=O)(O)O)O2)c(=O)[nH]c1=O,KOS,4 µg/mL
[N-]=[N+]=NCc1cn([C@H]2C[C@H](O)[C@@H](CO)O2)c(=O)[nH]c1=O,VEX142,7 µg/mL
Nc1ncnc2c1ncn2[C@@H]1O[C@H](CO)[C@@H](O)[C@H]1OP(=O)(O)OC[C@H]1O[C@@H](n2cnc3c(N)ncnc32)[C@H](OP(=O)(O)OC[C@H]2O[C@@H](n3cc(F)c(=O)[nH]c3=O)C[C@@H]2O)[C@@H]1O,F,100 µg/mL
O=c1[nH]c(=O)n([C@H]2C[C@H](O)[C@@H](COP(=O)(O)O)O2)cc1/C=C/c1ccccc1,McIntyre,30 µg/mL
Nc1nc(=O)n([C@H]2C[C@H](O)[C@@H](CO)O2)cc1/C=C\Cl,B2006 (TK-),>200 µg/mL
CSCc1cn([C@H]2C[C@H](O)[C@@H](CO)O2)c(=O)[nH]c1=O,VDX500,20 µg/mL
Nc1nc(=O)n([C@H]2C[C@H](O)[C@@H](CO)O2)cc1/C=C/Cl,F,0.07 µg/mL
CCc1cn([C@H]2C[C@H](O)[C@@H](COP(=O)(O)O)O2)c(=O)[nH]c1=O,B2006 (TK-),>820 µg/mL
O=c1[nH]c(=O)n([C@H]2C[C@H](O)[C@@H](CO)O2)cc1/C=C/Br,VMW1837 (TK-),150 µg/mL

Repeating the final 2 entries:

CCc1cn([C@H]2C[C@H](O)[C@@H](COP(=O)(O)O)O2)c(=O)[nH]c1=O ; strain or isolate: B2006 (TK-) ; value: >820 µg/mL
O=c1[nH]c(=O)n([C@H]2C[C@H](O)[C@@H](CO)O2)cc1/C=C/Br ; strain or isolate: VMW1837 (TK-) ; value: 150 µg/mL